The source of these data is paper PMC6608616, “Conservation of the structure and function of bacterial tryptophan synthases” (2019).

Chains of the proteins cited; added tags and fusions are not shown. Lines headed by an entry give the natural chain unless they say otherwise; changes in a name come on top. Residues count along the entry.
UniProt Q5ZVY3: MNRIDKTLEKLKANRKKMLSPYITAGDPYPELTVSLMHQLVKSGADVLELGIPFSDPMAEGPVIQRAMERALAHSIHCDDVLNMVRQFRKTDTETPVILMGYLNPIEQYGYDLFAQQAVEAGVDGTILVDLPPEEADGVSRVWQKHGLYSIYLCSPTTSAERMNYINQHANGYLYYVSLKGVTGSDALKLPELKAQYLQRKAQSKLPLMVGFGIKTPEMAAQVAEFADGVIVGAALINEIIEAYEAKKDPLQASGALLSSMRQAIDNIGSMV
UniProt Q5ZVY4, 13-396 limits assumed: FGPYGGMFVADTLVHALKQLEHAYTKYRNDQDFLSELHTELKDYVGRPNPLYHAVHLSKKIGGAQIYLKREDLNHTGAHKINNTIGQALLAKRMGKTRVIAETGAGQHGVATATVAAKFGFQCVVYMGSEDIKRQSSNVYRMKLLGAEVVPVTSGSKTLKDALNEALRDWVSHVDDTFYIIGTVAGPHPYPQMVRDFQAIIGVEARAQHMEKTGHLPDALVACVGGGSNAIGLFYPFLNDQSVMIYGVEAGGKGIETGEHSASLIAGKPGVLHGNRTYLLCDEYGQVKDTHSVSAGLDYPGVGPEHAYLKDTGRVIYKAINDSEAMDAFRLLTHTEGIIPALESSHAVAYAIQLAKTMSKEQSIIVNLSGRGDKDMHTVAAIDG
UniProt Q97P32, 4-407 limits assumed: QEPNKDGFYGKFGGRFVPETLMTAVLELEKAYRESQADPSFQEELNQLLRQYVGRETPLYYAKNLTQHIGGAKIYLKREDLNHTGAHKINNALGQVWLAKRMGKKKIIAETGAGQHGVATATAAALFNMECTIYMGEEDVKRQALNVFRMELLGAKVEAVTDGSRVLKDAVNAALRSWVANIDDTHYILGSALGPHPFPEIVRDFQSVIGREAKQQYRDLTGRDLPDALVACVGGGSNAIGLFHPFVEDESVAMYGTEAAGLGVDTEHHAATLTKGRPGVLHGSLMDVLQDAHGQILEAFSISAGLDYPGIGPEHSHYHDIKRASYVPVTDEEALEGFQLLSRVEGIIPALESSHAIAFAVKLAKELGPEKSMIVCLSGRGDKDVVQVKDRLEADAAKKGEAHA
UniProt Q97P33: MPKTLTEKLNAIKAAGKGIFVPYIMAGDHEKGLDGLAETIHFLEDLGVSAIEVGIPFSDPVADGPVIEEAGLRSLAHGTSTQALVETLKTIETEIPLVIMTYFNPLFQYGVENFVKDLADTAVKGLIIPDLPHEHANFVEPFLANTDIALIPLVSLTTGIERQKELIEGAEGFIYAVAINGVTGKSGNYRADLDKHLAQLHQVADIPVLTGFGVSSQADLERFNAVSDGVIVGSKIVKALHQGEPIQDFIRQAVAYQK
UniProt Q5NE79: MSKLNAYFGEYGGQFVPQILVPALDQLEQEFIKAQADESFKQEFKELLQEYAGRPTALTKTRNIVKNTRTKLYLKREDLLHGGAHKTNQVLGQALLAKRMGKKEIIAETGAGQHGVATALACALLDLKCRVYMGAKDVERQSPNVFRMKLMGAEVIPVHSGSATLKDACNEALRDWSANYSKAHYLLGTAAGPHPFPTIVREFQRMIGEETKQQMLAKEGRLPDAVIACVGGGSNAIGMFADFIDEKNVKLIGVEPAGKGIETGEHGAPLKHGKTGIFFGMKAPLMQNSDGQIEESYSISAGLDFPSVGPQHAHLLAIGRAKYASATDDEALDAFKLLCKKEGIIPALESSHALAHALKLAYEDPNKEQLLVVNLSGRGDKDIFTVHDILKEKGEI
UniProt Q5NE80: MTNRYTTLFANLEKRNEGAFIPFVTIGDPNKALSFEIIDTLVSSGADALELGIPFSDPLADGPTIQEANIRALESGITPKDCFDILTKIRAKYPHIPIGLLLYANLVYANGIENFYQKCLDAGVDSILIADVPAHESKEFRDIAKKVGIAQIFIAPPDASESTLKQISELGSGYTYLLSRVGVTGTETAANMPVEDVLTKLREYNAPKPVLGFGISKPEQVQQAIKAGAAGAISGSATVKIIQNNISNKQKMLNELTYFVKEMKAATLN
UniProt P9WFX9: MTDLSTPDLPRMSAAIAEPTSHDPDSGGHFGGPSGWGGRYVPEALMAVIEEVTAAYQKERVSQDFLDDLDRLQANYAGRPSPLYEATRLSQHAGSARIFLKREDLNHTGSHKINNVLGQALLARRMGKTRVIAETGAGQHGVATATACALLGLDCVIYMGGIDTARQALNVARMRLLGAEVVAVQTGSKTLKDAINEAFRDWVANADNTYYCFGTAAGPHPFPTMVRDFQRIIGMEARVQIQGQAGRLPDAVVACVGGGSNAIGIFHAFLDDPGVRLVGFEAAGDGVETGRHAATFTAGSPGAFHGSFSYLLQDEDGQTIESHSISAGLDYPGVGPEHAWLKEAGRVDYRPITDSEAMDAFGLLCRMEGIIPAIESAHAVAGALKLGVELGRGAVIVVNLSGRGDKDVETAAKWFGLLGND
UniProt P9WFY1: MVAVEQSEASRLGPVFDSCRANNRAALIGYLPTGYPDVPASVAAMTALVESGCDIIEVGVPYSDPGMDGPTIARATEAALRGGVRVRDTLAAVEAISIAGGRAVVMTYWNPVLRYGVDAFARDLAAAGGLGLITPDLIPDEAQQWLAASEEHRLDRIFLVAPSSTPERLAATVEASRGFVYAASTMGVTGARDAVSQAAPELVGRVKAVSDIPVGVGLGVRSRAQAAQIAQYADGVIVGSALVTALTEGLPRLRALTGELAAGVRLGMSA

Assay [1] has as its target LpPhTrpAB (Legionella pneumophila subsp. pneumophila, UniProt Q5ZVY3+Q5ZVY4). Put plainly: LC-MS assay, inhibition of the β reaction (indole + L-Ser to L-Trp). Conditions: substrate Km conditions, 600 nM LpPhTrpAB, compound 0 to 200 µM.
Assay [2] deals with SpTrpAB (Streptococcus pneumoniae serotype 4, UniProt Q97P32+Q97P33). The description is as above. The conditions noted are these: 100 nM SpTrpAB; for effect on the β reaction of SpTrpAB (in words): substrate Km conditions, compound 0 to 200 µM.
Assay [3] addresses FtTrpAB (Francisella tularensis subsp. tularensis, UniProt Q5NE79+Q5NE80). Described as above. The conditions noted are these: 5 nM FtTrpAB; for IC50: read-out: IC^β 50, β reaction, substrate Km conditions (10 µM indole, 20 mM L-Ser).
Assay [4] has as its target MtTrpAB (Mycobacterium tuberculosis, UniProt P9WFX9+P9WFY1). The conditions noted are these: previously characterized, ref Wellington et al., 2017; cited from earlier work.
The test system of assay [5] is StTrpAB. The conditions noted are these: previously characterized, ref Raboni et al., 2007; cited from earlier work.

On to `O=P(O)(O)OCCCc1c[nH]c2ccccc12`, for which the “effect on the β reaction of LpPhTrpAB (in words)” value (from here on “effect … of LpPhTrpAB (in words)”) in assay [1] was “inhibition was only observed for the FtTrpAB enzyme”. The “effect on the β reaction of SpTrpAB (in words)” value (“effect … of SpTrpAB (in words)” below) in assay [2] was “inhibition was only observed for the FtTrpAB enzyme”. For the same compound, the IC50 in assay [3] turned out to be 80 nM.

`N[C@@H](CO)C(=O)O`: the “K m for serine” value was 4400 µM in assay [4] and 580 µM in assay [5].

Consider `O=C(NCCOP(=O)(O)O)c1ccc(OC(F)(F)F)cc1`, for which the “effect … of LpPhTrpAB (in words)” value in assay [1] is “inhibition was only observed for the FtTrpAB enzyme”. For the same compound, the “effect … of SpTrpAB (in words)” value in assay [2] is reported as “inhibition was only observed for the FtTrpAB enzyme”. Also, the IC50 in assay [3] came to 1460 nM.

For the compound `O=P(O)(O)OCCNS(=O)(=O)c1ccc(OC(F)(F)F)cc1`, in assay [1], the “effect … of LpPhTrpAB (in words)” value was “only slightly inhibiting”. In assay [2], the “effect … of SpTrpAB (in words)” value is “activator”. Also, the IC50 in assay [3] was 114 nM.

With `N#CC1NC(CO)C1c1ccc(-c2ccccc2F)cc1` (stereo not drawn), the “effect … of LpPhTrpAB (in words)” value in assay [1] was “slightly inhibited”. The IC50 in assay [2] (read-out: IC^β 50, β reaction, substrate Km conditions (10 µM indole, 20 mM L-Ser)) turned out to be 21000 nM. Besides, in assay [2], the “effect … of SpTrpAB (in words)” value is listed as “slightly inhibited”. Besides, the “effect on the β reaction of FtTrpAB (in words)” value in assay [3] (substrate Km conditions, compound 0 to 200 µM) is on record as “slightly inhibited”.
